The source of these data is article PMC11323011, “Combatting Antibiotic-Resistant Staphylococcus aureus: Discovery of TST1N-224, a Potent Inhibitor Targeting Response Regulator VraRC, through Pharmacophore-Based Screening and Molecular Characterizations” (Journal of Chemical Information and Modeling, 2024).

The chains behind the UniProt entries cited, without tags or fusion partners. Residues count along the entry.
UniProt Q7A2Q1, 138-209: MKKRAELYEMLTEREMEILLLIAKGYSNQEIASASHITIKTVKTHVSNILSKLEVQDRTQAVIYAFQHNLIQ

The series addresses VraRC (VraR C-terminal DNA-binding domain) (Staphylococcus aureus) (UniProt Q7A2Q1). Put plainly: fluorescence polarization. Conditions: 10 nM DNA, unphosphorylated DNA-binding domain; 20 mM sodium phosphate, 150 mM NaCl, pH 6.0, 25 °C, 10 min; recombinant protein; residues 138-209; label: 5' 6-FAM on strand 1. On the technique in general: Polarisation of emitted light reports the rotation of a fluorescent probe.

For at least one entry, the source does not settle the construct or the ends of the probe.

On to “AGACTAAAGTATGAACATCATT (double strand) [VraRC cognate DNA (6-FAM 22-mer; probably R1-DNA)]”, for which the Kd (in general, the concentration at which binding is half-saturated) was found to be 4.1 µM.
